A mixed list of measured activities; the numbers were collected in NIAID ChemDB.

Shared fields: cytotoxicity tests; measure: CC50

Conditions beyond the fields shown may differ between rows.

| SMILES | method | cells | result |
|---|---|---|---|
| CC(C)CCCC(C)Nc1ccc(C(=O)C2CC2c2ccc(Cl)cc2)cc1 | - | C1008 (Vero cells) | 235 µg/mL |
| CC1(C)CCC[C@]2(C)[C@H]3C[C@@H](C4=CCOC4=O)CC3=CC[C@@H]12 | absorbance | ASK (rat glioma cells) | 33.7 µM |
| c1ccc(-c2cc3c4ccccc4ccn3c2)cc1 | MTT | MRC-5 | >500 µM |
| CCO/N=C/c1ccc(OCCC2CCN(c3ccc(C)nn3)CC2)c(C)c1C | neutral red | MRC-5 | >0.1 µg/mL |
| C=CCOc1ccc(-c2cc3c(-c4ccnc(NC5CCCC5)n4)ccc(NC4CCCC4)n3n2)cc1 | - | VERO 76 | >100 µM |
| CO/N=C/c1ccc(OCCC2CCN(c3ccc(C)nn3)CC2)c(C)c1C | neutral red | MRC-5 | >0.1 µg/mL |
| CCN1CCC(O)(/C=C/c2ccc(Cl)cc2)C(C(=O)/C=C/c2ccc(Cl)cc2)C1 | - | MOLT 4/C8 | 14.5 µg/mL |
| CN(CCc1ccccc1)C(=O)NCCc1ccc2c(n1)NCCC2 | - | PBMC | 50 µM |
| COc1ccc(C2CC2C(=O)c2ccc(N3CCN(C)CC3)cc2)cc1OC | - | C1008 (Vero cells) | 235 µg/mL |
| CCc1ccc2cc(-c3ccccc3)cn2c1 | MTT | MRC-5 | >500 µM |
| CCO/N=C/c1ccc(OCCC2CCN(c3ccc(C)nn3)CC2)cc1C | neutral red | MRC-5 | >0.1 µg/mL |
| c1csc(-c2cc3ccccn3c2)c1 | MTT | MRC-5 | 90 µM |
| CC(=N\NC(=O)c1ccc([N+](=O)[O-])o1)/C(Cl)=N/Nc1ccc(S(N)(=O)=O)cc1 | MTT | MDA-MB-231 | >50 µg/mL |
| O=C(OCc1ccccc1)N1OCCC1n1cc(COCc2ccccc2)c(=O)[nH]c1=O | MTS | MOLT-3 | >1000 µM |
| CCOC(=O)CCCCCOc1cccc(CN(C(=O)c2ccc(-c3cccnc3)cc2)C(C)C)c1 | - | HEK 293 | >20 µM |
| c1ccc(-c2cccc(-c3cc4c(-c5ccnc(NC6CCCC6)n5)ccc(NC5CCCC5)n4n3)c2)cc1 | - | VERO 76 | >40 µM |
| CCO/N=C/c1ccc(OCCC2CCN(c3nc(OC)nc(OC)n3)CC2)cc1 | neutral red | MRC-5 | >0.1 µg/mL |
| CCCCCCCCNc1ccc(C(=O)C2CC2c2ccc(Cl)cc2)cc1 | - | C1008 (Vero cells) | 235 µg/mL |
| Cc1c2ccnc(Cl)c2cc2c3cn(C)ccc-3nc12 | - | Macrophages | >1 µM |
| NC1=NC2C(C=CN2CC(CO)CCO)C(=O)N1 | cell count | P3HR-1 | >200 µM |
| O=C(c1ccc(NCCO)cc1)C1CC1c1ccc(Cl)cc1 | - | C1008 (Vero cells) | 235 µg/mL |
| O=C(N/N=C(/CS(=O)(=O)c1ccccc1)c1ccc(Cl)cc1)c1ccc([N+](=O)[O-])o1 | MTT | MDA-MB-231 | >50 µg/mL |
| CCOC(=O)CCCCCOc1cccc(CN(C(=O)c2ccc(-c3cccc(OCC)c3)cc2)C(C)C)c1 | - | HEK 293 | >20 µM |
| Fc1ccc(-c2cc3c(-c4ccnc(NC5CCCC5)n4)ccc(NC4CCCC4)n3n2)cc1 | - | VERO 76 | >160 µM |
| CO/N=C/c1ccc(OC)c(OCCC2CCN(c3ccc(Cl)nn3)CC2)c1 | visual reading | MRC-5 | >1 µg/mL |
| O=C(c1ccc(N2CCOCC2)cc1)C1CC1c1ccc(Cl)cc1 | - | C1008 (Vero cells) | 235 µg/mL |
| CC(=N\NC(=O)c1ccc([N+](=O)[O-])o1)/C(Cl)=N/Nc1ccc(S(=O)(=O)Nc2nccs2)cc1 | MTT | MDA-MB-231 | >50 µg/mL |
| Cc1cc(=O)oc2cc(OCc3cn(Cc4cc(=O)oc5ccc6ccccc6c45)nn3)ccc12 | MTT | HBL100 | 52.03 µg/mL |
| COc1cccc(-c2cc3c(-c4ccnc(NC5CCCC5)n4)ccc(NC4CCCC4)n3n2)c1 | - | VERO 76 | >40 µM |
| COc1ccc(C[C@H](CS(=O)(=O)C(C)(C)C)C(=O)N[C@H](C(=O)N[C@@H](Cc2ccccc2)[C@@H](O)[C@H](O)[C@H](Cc2ccccc2)NC(=O)[C@@H](NC(=O)[C@H](Cc2ccc(OC)cc2)CS(=O)(=O)C(C)(C)C)C(C)C)C(C)C)cc1 | - | PBLC | >0.08 µM |
| O=C(NCCc1ccccc1)NCCc1cccc(-n2ccnc2)n1 | - | PBMC | 50 µM |
| CC(C)(CCCOc1ccc(-c2ccc(Cl)cc2)cc1)CN1CCN(c2ccncc2)C1=O | - | RD | 20 µM |
| CC(C)N(Cc1ccc(OCC(=O)O)cc1)C(=O)c1ccc(-c2ccc3c(c2)OCO3)cc1 | - | BJ | >20 µM |
| CC(C)C[C@@H]1NC(=O)[C@H](Cc2c[nH]c3ccccc23)NC(=O)[C@@H](CCCCN)NC(=O)[C@H](CC(=O)O)NC(=O)[C@H](C(C)C)NC(=O)[C@@H](CC(C)C)NC1=O | MTT | Lung carcinoma cells | >30 µM |
| Nc1nc2c(ncn2CCC(CO)CO)c(=O)[nH]1 | cell count | P3HR-1 | >700 µM |
| CC(C)(CCCN1CCN(c2ccncc2)C1=O)COc1ccc(-c2ccc(Cl)cc2)cc1 | - | RD | >25 µM |
| CC(C)C[C@@H]1NC(=O)[C@H](Cc2c[nH]c3ccccc23)NC(=O)[C@@H](CCCCN)NC(=O)[C@H](CC(N)=O)NC(=O)[C@H](CC(C)C)NC(=O)[C@@H](CC(C)C)NC1=O | MTT | Colorectal carcinoma | >30 µM |
| CC(C)[C@H](NC(=O)[C@H](Cc1cccc2ccccc12)CS(=O)(=O)C(C)(C)C)C(=O)N[C@@H](Cc1ccccc1)[C@H](O)[C@@H](O)[C@H](Cc1ccccc1)NC(=O)[C@@H](NC(=O)[C@H](Cc1cccc2ccccc12)CS(=O)(=O)C(C)(C)C)C(C)C | - | PBLC | >0.02 µM |
| CO/N=C/c1cccc(OCCC2CCN(c3ccc(Cl)nn3)CC2)c1 | visual reading | MRC-5 | 1 µg/mL |
| CN(C(=O)c1ccncc1)c1cc(C(F)(F)F)ccc1N1CCCCC1 | MTS | Huh7/Rep-Feo1b | >30 µM |
| O=C(NCCc1ccc2c(n1)NCCC2)Nc1ccc2c(c1)OCO2 | - | PBMC | 50 µM |
| COc1cccc2c1C(=O)c1c(O)c3c(c(O)c1C2=O)C[C@@](O)(C(=O)CO)C[C@@H]3O[C@H]1C[C@H](N)[C@H](O)[C@H](C)O1 | MTT | HBL100 | 0.3 µM |
| O=C(OCc1ccccc1)N1OCCC1n1cc(COCc2cn(CCO)nn2)c(=O)[nH]c1=O | MTS | MOLT-3 | 670 µM |
| O=C1N(Cc2cccc(COc3ccc(-c4ccc(Cl)cc4)cc3)c2)CCN1c1ccncc1 | - | RD | >6.25 µM |
| Fc1ccccc1-c1cc2ccccn2c1 | MTT | MRC-5 | 500 µM |
| CCCCOc1nc(N)c2c(n1)N(Cc1cccc(CN3CCCC3)c1)CC(=O)N2 | luminescence | Macrophage | >10 µM |
| O=C(NCCc1ccc2c(n1)NCCC2)Nc1ccc(Cl)cc1 | - | PBMC | 1.3 µM |
| C=CCCCC(=O)NCC(c1ccc2c(c1)OCO2)C1OCCO1 | - | RAJI | <7.5 µM |
| CC(C)C[C@@H]1NC(=O)[C@H](Cc2c[nH]c3ccccc23)NC(=O)[C@@H](CCCN)NC(=O)[C@H](CC(N)=O)NC(=O)[C@H](C(C)C)NC(=O)[C@@H](CC(C)C)NC1=O | MTT | Lung carcinoma cells | >30 µM |
| C=CCOCc1cn(C2CCON2C(=O)OCc2ccccc2)c(=O)[nH]c1=O | MTS | MOLT-3 | >1000 µM |
| N#Cc1ccn2cc(-c3ccccc3)cc2c1 | MTT | MRC-5 | 253 µM |
| Nc1nc(=O)n([C@@H]2O[C@H](CO)[C@@H](O)[C@@H]2F)cc1I | cell count | P3HR-1 | 22 µM |
| Cc1nc2c(OC(F)F)cccc2n1-c1ccc(C(=O)NC2CC2)s1 | resazurin | Kidney epithelial cells | >62 µM |
| CO[C@@H]1[C@H](N(C)C(=O)c2ccccc2)C[C@@]2(C)O[C@]1(C)n1c3ccccc3c3c4c(c5c6ccccc6n2c5c31)C(=O)NC4 | fluorescence | J-Lat 9.2 | >5 µM |
| O=C(OCc1ccccc1)N1OCCC1n1cc(COCc2cn(-c3ccc(F)cc3)nn2)c(=O)[nH]c1=O | MTS | MOLT-3 | 579 µM |
| CCc1cn([C@H]2C[C@H](O)[C@@H](CO)O2)c(=O)[nH]c1=O | cell count | P3HR-1 | 578 µM |
| CC[C@H](C)[C@H]1OC(=O)[C@H](C(C)C)N(C)C(=O)[C@@H]([C@@H](C)CC)OC(=O)[C@H](C(C)C)N(C)C(=O)[C@@H]([C@@H](C)CC)OC(=O)[C@H](C(C)C)NC1=O | absorbance | KB cells | 1.05 µM |
| CC(C)c1ccccc1NC(=O)NCCCc1ccc2c(n1)NCCC2 | - | PBMC | 15.1 µM |
| CC(C)(C)S(=O)(=O)C[C@@H](Cc1cccc2ccccc12)C(=O)N[C@@H](CCC(=O)O)C(=O)N[C@@H](Cc1ccccc1)[C@@H](O)[C@H](O)[C@H](Cc1ccccc1)NC(=O)[C@H](CCC(=O)O)NC(=O)[C@H](Cc1cccc2ccccc12)CS(=O)(=O)C(C)(C)C | - | PBLC | >1 µM |
| CO/N=C/c1ccc(OCCC2CCN(c3ccc(Cl)nn3)CC2)cc1 | neutral red | MRC-5 | >0.1 µg/mL |
| CC(CCCCN1CCN(c2ccncc2)C1=O)Oc1ccc(-c2ccc(Cl)cc2)cc1 | - | RD | >12.5 µM |
| CC(=N\NC(=O)c1ccc([N+](=O)[O-])o1)/C(Cl)=N/Nc1ccc(S(=O)(=O)Nc2ncccn2)cc1 | MTT | MDA-MB-231 | 33.7 µg/mL |
| CC(=O)Nc1cccc(-c2cc3c(-c4ccnc(NC5CCCC5)n4)ccc(NC4CCCC4)n3n2)c1 | - | VERO 76 | >40 µM |
| CC[C@H](C)[C@@H]1NC(=O)[C@@H](CC(C)C)NC(=O)[C@H](CC(C)C)NC(=O)[C@H](Cc2c[nH]c3ccccc23)NC(=O)CNC(=O)[C@H](CC(N)=O)NC1=O | MTT | Colorectal carcinoma | >30 µM |
| COc1ccc(CNc2ccc(C(=O)C3CC3c3ccc(Cl)cc3)cc2)cc1OC | - | C1008 (Vero cells) | 394 µg/mL |

The last 10 rows once more:

SMILES,method,cells,result
CCc1cn([C@H]2C[C@H](O)[C@@H](CO)O2)c(=O)[nH]c1=O,cell count,P3HR-1,578 µM
CC[C@H](C)[C@H]1OC(=O)[C@H](C(C)C)N(C)C(=O)[C@@H]([C@@H](C)CC)OC(=O)[C@H](C(C)C)N(C)C(=O)[C@@H]([C@@H](C)CC)OC(=O)[C@H](C(C)C)NC1=O,absorbance,KB cells,1.05 µM
CC(C)c1ccccc1NC(=O)NCCCc1ccc2c(n1)NCCC2,-,PBMC,15.1 µM
CC(C)(C)S(=O)(=O)C[C@@H](Cc1cccc2ccccc12)C(=O)N[C@@H](CCC(=O)O)C(=O)N[C@@H](Cc1ccccc1)[C@@H](O)[C@H](O)[C@H](Cc1ccccc1)NC(=O)[C@H](CCC(=O)O)NC(=O)[C@H](Cc1cccc2ccccc12)CS(=O)(=O)C(C)(C)C,-,PBLC,>1 µM
CO/N=C/c1ccc(OCCC2CCN(c3ccc(Cl)nn3)CC2)cc1,neutral red,MRC-5,>0.1 µg/mL
CC(CCCCN1CCN(c2ccncc2)C1=O)Oc1ccc(-c2ccc(Cl)cc2)cc1,-,RD,>12.5 µM
CC(=N\NC(=O)c1ccc([N+](=O)[O-])o1)/C(Cl)=N/Nc1ccc(S(=O)(=O)Nc2ncccn2)cc1,MTT,MDA-MB-231,33.7 µg/mL
CC(=O)Nc1cccc(-c2cc3c(-c4ccnc(NC5CCCC5)n4)ccc(NC4CCCC4)n3n2)c1,-,VERO 76,>40 µM
CC[C@H](C)[C@@H]1NC(=O)[C@@H](CC(C)C)NC(=O)[C@H](CC(C)C)NC(=O)[C@H](Cc2c[nH]c3ccccc23)NC(=O)CNC(=O)[C@H](CC(N)=O)NC1=O,MTT,Colorectal carcinoma,>30 µM
COc1ccc(CNc2ccc(C(=O)C3CC3c3ccc(Cl)cc3)cc2)cc1OC,-,C1008 (Vero cells),394 µg/mL

CCn: concentration that lowers growth or viability of the cells by n%. An empty or dashed field is not shown.